Anti-infective test results gathered from many reports (values: NIAID ChemDB through PubChem).

All rows: whole-cell or culture tests; organism: HIV-1

ECn: concentration that inhibits the pathogen or its effect by n%. Blank or dashed fields: not listed here. a–b is a range or a potency band. Rows are shuffled and stem from different studies.

smiles	read-out	cells	mutations	strain or isolate	method	conditions	result
CCN1c2ncc(CCOc3ccc(CCC(=O)O)c4ccccc34)cc2C(=O)Nc2c(C)cc(Cl)nc21	EC50	C8166	RT-K103N Y181C		p24		0.1–1 µM
COc1cccc(/C=C/c2cc(Cl)c3cc(Cl)ccc3n2)c1OC	EC50	TZM-bl		UG070	luminescence		62.46 µM
CC1=C(C(=O)Nc2ccc(Cl)c(C(=O)OC(C)C)c2)SCCO1	EC50	CEM	RT-Y181C	IIIB	syncytia		42 µM
CCN1c2ncc(CCOc3ccc(C(=O)O)c4c3CCCC4)cc2C(=O)N(C)c2ccc(C)nc21	EC50	C8166		WT	p24		<0.1 µM
CS(=O)(=O)N1CCc2nc(C(=O)NCc3ccc(F)cc3)c(O)c(=O)n2CC1	EC95	MT-4			p24		<50 µM
CC(C)C1=C2[C@H]3CC[C@@H]4[C@@]5(C)CC[C@H](OC(=O)[C@H]6C[C@@H](C(=O)O)C6(C)C)C(C)(C)[C@@H]5CC[C@@]4(C)[C@]3(C)CC[C@@]2(CCNCC(C)(C)NC(=O)c2ccc3nc[nH]c3c2)CC1=O	EC50	MT-2		92HT599	p24 / ELISA		<1 µM
Nc1ccn([C@H]2CC[C@@H](CO)O2)c(=O)n1	EC50		N43K	NL4-3	β-galactosidase		0.22 µM
COCc1nc(Nc2ccc(C#N)cc2)nc(Nc2c(C)cc(/C=C/C#N)cc2C)c1C(=O)N(C)OC	EC50	MT4 CMV-EGFP		K103N + Y181C			0.0724 µM
CCC(C)[C@@H](C(=O)N[C@@H](Cc1ccccc1)[C@H](O)CN(CC(C)C)S(=O)(=O)c1ccc(/C=N/O)cc1)N1CC(=O)N(Cc2ccncc2)C1=O	EC50	MT-4			cytopathic effect / MTT	50% human serum	0.013 µM
Cc1ccc(CNC(=O)c2nc3n(c(=O)c2O)C(C)CCCC3N(C)C(=O)C(=O)N(C)C)cc1F	EC50	HeLa P4-2	Q148R		single cycle		0.001 µM
Cc1cc(OCCCS(N)(=O)=O)ccc1NC(=O)COc1ccc(Cl)cc1C(=O)c1cc(F)cc(C(F)(F)F)c1	EC50	HeLa + HELA CD4+	RT-V106A	HXB2	β-galactosidase		0.011–0.1 µM
CC(C)C1=C2[C@H]3CC[C@@H]4[C@@]5(C)CC[C@H](OC(=O)[C@H]6C[C@@H](C(=O)O)C6(C)C)C(C)(C)[C@@H]5CC[C@@]4(C)[C@]3(C)CC[C@@]2(CC(=O)NCC(C)(C)NC(=O)c2ccc(O[C@@H]3CCOC3)cn2)CC1=O	EC50	MT-2		92HT599	p24 / ELISA		<1 µM
CCC(=O)c1ccc(F)c([C@@H]2C[C@@H]2NC(=O)Nc2ccc(C#N)cn2)c1O	EC50	TZM-bl	NNRTI-resistant (RT P225H)	LAI	β-galactosidase / luminescence		0.00076 µM
CC(C)n1c(=O)c(O)c2n(c1=O)C[C@@H]1CC[C@H](c3ccccc3)N1C2=O	EC50	MT-4			p24		<10 µM
COCc1nc(Nc2ccc(C#N)cc2)nc(Nc2c(C)cc(/C=C/C#N)cc2C)c1C(=O)NCc1ccccn1	EC50	MT4 CMV-EGFP		MDR			0.0933 µM
CC(C)=CCOc1cc(NC(=S)c2ccoc2C)ccc1Cl	EC50	CEM + CEM-SS	RT-D67N K70R Y181C T215Y K219Q	4XAZT+Y181C (RT D67N K70R Y181C T215Y K219Q)	p24		0.2 µM
Cc1cc(C)cc(C(=O)c2cc(Cl)ccc2OCC(=O)Nc2ccc(S(N)(=O)=O)cc2C)c1	EC50	HeLa + HELA CD4+	RT-K103N G190A	HXB2 (RT-K103N G190A) Recombinant	β-galactosidase		<0.01 µM
CN(CC1c2nc(C(=O)NCc3ccc(F)cc3)c(O)c(=O)n2CCN1C)C(=O)c1ccccn1	EC95	MT-4			p24		1–10 µM
Cc1cc(CNC(=O)c2nc3n(c(=O)c2O)CC(C)(C)CCC3N(C)C(=O)C(=O)N(C)C)ccc1F	EC50	HeLa P4-2	Y143R		single cycle		0.001 µM
CC(C)C1=C2[C@H]3CC[C@@H]4[C@@]5(C)CC[C@H](OC(=O)[C@H]6C[C@@H](C(=O)O)C6(C)C)C(C)(C)[C@@H]5CC[C@@]4(C)[C@]3(C)CC[C@@]2(CCNC(=O)c2ccc(Cl)cc2O[C@H]2CCOC2)CC1=O	EC50	MT-2		92HT599	p24 / ELISA		<1 µM
COCCNC(=O)c1c(COC)nc(Nc2ccc(C#N)cc2)nc1Nc1c(C)cc(/C=C(\C)C#N)cc1C	EC50	MT4 CMV-EGFP		K103N+Y101C			0.0195 µM
CC(C)CN(C[C@@H](O)[C@H](Cc1ccccc1)NC(=O)[C@H](C(C)C)N1CC(=O)N(Cc2ccccn2)C1=O)S(=O)(=O)c1ccc(/C=N/O)cc1	EC50	MT-4			cytopathic effect / MTT		0.005 µM
CCN1c2ncc(CCOc3ccc(CC(=O)O)c4ccccc34)cc2C(=O)N(C)c2cccnc21	EC50	C8166	RT-K103N Y181C		p24		<0.1 µM
CC[C@H]1COC[C@@H](N(C)C(=O)C(=O)N(C)C)c2nc(C(=O)NCc3ccc(F)cc3)c(O)c(=O)n21	EC50	HeLa P4-2	Q148R		single cycle		0.001 µM
CC(C)[C@H](NC(=O)OCc1ccccn1)C(=O)N[C@@H](Cc1ccccc1)[C@@H](O)C[C@H](Cc1ccccc1)NC(=O)OCc1cccnc1	EC95	MT-4	PR-L10R M46I L63P	NL4-3	p24		0.8 µM
Cc1cc(S(N)(=O)=O)ccc1NC(=O)COc1ccc(Cl)cc1C(=O)c1cc(Cl)cc(C#N)c1	EC50	HeLa + HELA CD4+	RT-G190A	HXB2	β-galactosidase		<0.01 µM
Nc1nc(=O)n([C@H]2C=C[C@@H](CO)O2)cc1F	EC90	MT-4	RT-A62V V75I F77C F116Y Q151M	XM-Q151M	p24		32 µM
CN1CCn2c(nc(C(=O)NCc3ccc(F)cc3)c(O)c2=O)C(N(C)S(=O)(=O)N(C)C)C1	EC95	MT-4			p24		<1 µM
CN(C)C(=O)CC1Cn2c(c(O)c(=O)n(C3CCCC3)c2=O)C(=O)N1Cc1ccc(F)cc1	EC50	MT-4			p24		<10 µM
Cc1cc(C#N)cc(C(=O)c2cc(Cl)ccc2OCC(=O)Nc2ccc(OCCCN3CC=CC3)cc2C)c1	EC50	HeLa + HELA CD4+	RT-K103N Y181C	HXB2 (RT-K103N Y181C) Recombinant	β-galactosidase		<0.01 µM
Cc1ccc(-c2ccc3c(c2)C=C(C(=O)Nc2ccc(C[N+](C)(C)C4CCOCC4)cc2)CCC3)cc1	EC50	PBMC		TB8 CLADE C	p24		<1 µM
CCc1cc(C#N)cc(C(=O)c2cc(Cl)ccc2OCC(=O)Nc2ccc(S(N)(=O)=O)cc2C)c1	EC50	MT-4	RT-Y181C	Nevirapine-resistant (RT Y181C)	cytopathic effect / propidium iodide		<0.01 µM
CC1(C)NCCn2c1nc(C(=O)NCc1ccc(F)cc1)c(O)c2=O	EC50	MT-4			p24		<50 µM
COC[C@@H](c1ccc(C(F)(F)F)cc1)N1CCN(C2(C)CCN(C(=O)c3c(C)ncnc3C)CC2)C[C@@H]1C	EC50	PBMC		R14/S			0.00021 µM
CC(=O)N(CC1CCCCC1)C1CN(C)CCn2c1nc(C(=O)NCc1ccc(F)cc1)c(O)c2=O	EC50	MT-4			p24		<1 µM
COCc1nc(Nc2ccc(C#N)cc2)nc(Nc2c(C)cc(/C=C(\C)C#N)cc2C)c1C(=O)NCc1ccncc1	EC50	MT4 CMV-EGFP		L1001+K103N			0.229 µM
Clc1ccc2nc(/C=C/c3ccc4c(c3)OCO4)cc(Cl)c2c1	EC50	TZM-bl		UG070	luminescence		102 µM
[2H]C(CNC(=O)c1ccc(Cl)cc1)NC(=O)C[C@@]12CC[C@]3(C)[C@H](CC[C@@H]4[C@@]5(C)CC[C@H](OC(=O)[C@H]6C[C@@H](C(=O)O)C6(C)C)C(C)(C)[C@@H]5CC[C@]43C)C1=C(C(C)C)C(=O)C2	EC50	MT-2		92HT599	p24 / ELISA		<1 µM
O=C1c2c(O)c(=O)nc(NCc3ccccc3)n2CCN1Cc1ccc(F)cc1	EC50	MT-4			p24		<10 µM
COCc1nc(Nc2ccc(C#N)cc2)nc(Nc2c(C)cc(/C=C/C#N)cc2C)c1C(=O)N1CCC(O)CC1	EC50	MT4 CMV-EGFP		L1001+K103N			1.62 µM
Cc1cc(S(N)(=O)=O)ccc1NC(=O)COc1ccc(Cl)cc1C(=O)c1cc(F)cc(C#N)c1	EC50	HeLa + HELA CD4+	RT-G190A	HXB2	β-galactosidase		<0.01 µM
C=C1CN(S(=O)(=O)c2ccc(C)cc2)CCCN(Cc2ccccc2)CCCN(S(=O)(=O)c2ccc(C)cc2)C1	EC50	SupT1		NL4-3	cytopathic effect		3.2 µM
C=CCNC(=O)c1c(COC)nc(Nc2ccc(C#N)cc2)nc1Nc1c(C)cc(/C=C/C#N)cc1C	EC50	MT4 CMV-EGFP		IIIB			0.00219 µM
C[C@H]1CO[C@@H]2Cn3cc(C(=O)NCc4ccc(F)cc4F)c(=O)c(O)c3C(=O)N12	EC50	CBMC	H51Y/R263K	NL4-3	RT activity		0.00098 µM
CC(C)=CCOc1cc(NC(=S)c2ccoc2C)ccc1Cl	EC50	CEM	RT-V179D	IIIB	syncytia		0.017 µM
COCc1nc(Nc2ccc(C#N)cc2)nc(Nc2c(C)cc(/C=C/C#N)cc2C)c1C(=O)NCC(OC)OC	EC50	MT4 CMV-EGFP		K103N + Y181C			0.0166 µM
CC(C)C1=C2[C@H]3CC[C@@H]4[C@@]5(C)CC[C@H](OC(=O)[C@H]6C[C@@H](C(=O)O)C6(C)C)C(C)(C)[C@@H]5CC[C@@]4(C)[C@]3(C)CC[C@@]2(CCNCc2ccc(CN3CCOCC3)cc2)CC1=O	EC50	MT-2		92HT599	p24 / ELISA		<1 µM
CCN1c2ncc(CCOc3ccc(C(=O)O)c4c3CCN(S(=O)(=O)N(C)C)C4)cc2C(=O)N(C)c2cccnc21	EC50	C8166	RT-K103N Y181C		p24		<0.1 µM
Cc1cc(S(N)(=O)=O)ccc1NC(=O)COc1ccc(Cl)cc1C(=O)c1cccc(C#N)c1	EC50	HeLa + HELA CD4+	RT-V106A Y181C	HXB2	β-galactosidase		0.011–0.1 µM
Clc1ccc2nc(/C=C/c3ccc(N4CCCC4)cc3)cc(Cl)c2c1	EC50	TZM-bl		UG070	luminescence		44.68 µM
CC(=O)N1CCCC(n2c(=O)c(O)c3n(c2=O)CCN(Cc2ccc(F)cc2)C3=O)C1	EC50	MT-4			p24		<10 µM
Cc1cc(S(N)(=O)=O)ccc1NC(=O)COc1ccc(Cl)cc1C(=O)c1cccc(C#N)n1	EC50	HeLa + HELA CD4+	RT-P236L	HXB2	β-galactosidase		<0.01 µM
CN1CCn2c(nc(C(=O)NCc3ccc(F)cc3)c(O)c2=O)C(N(C)C(=O)C(=O)N(C)C)C1	EC95	MT-4			p24		<1 µM
CCCc1cc(=O)oc2c3c(c4c(c12)OC(C)(C)CC4)O[C@H](C)[C@@H](C)[C@@H]3O	EC50	CEM + CEM-SS		IIIB	cytopathic effect / XTT		0.17 µM
CCC(C)[C@@H](C(=O)N[C@@H](Cc1ccccc1)[C@H](O)CN(CC1CCCC1)S(=O)(=O)c1ccc(/C=N/O)cc1)N1CCN(Cc2cccc(COC)n2)C1=O	EC50	MT-4			cytopathic effect / MTT		0.002 µM
CCN(C(=O)C(=O)N(C)C)[C@@H]1CC[C@H](OC)Cn2c1nc(C(=O)NCc1ccc(F)cc1)c(O)c2=O	EC50	HeLa P4-2	Q148R		single cycle		0.001 µM
COc1cc(-c2ccc(N=Nc3ccc4c(S(=O)(=O)O)cc(S(=O)(=O)O)c(N)c4c3O)c(OC)c2)ccc1N=Nc1ccc2c(S(=O)(=O)O)cc(S(=O)(=O)O)c(N)c2c1O	EC50	CEM + CEM-SS		MN	cytopathic effect / XTT		8.7 µM
CCC(C)[C@@H](C(=O)N[C@@H](Cc1ccccc1)[C@H](O)CN(CC(C)C)S(=O)(=O)c1ccc(/C=N/O)cc1)N1CCN(Cc2c(C)ccnc2C)C1=O	EC50	MT-4			cytopathic effect / MTT	50% human serum	0.013 µM
COc1cc(Br)ccc1/C=C/c1cc(Cl)c2ccccc2n1	EC50	TZM-bl		VB59	luminescence		27.49 µM
Nc1ccn([C@@H]2C=C(F)[C@H](CO)O2)c(=O)n1	EC50	PBMC		BRU	PCR		<0.6 µM
CC(C)C1=C2[C@H]3CC[C@@H]4[C@@]5(C)CC[C@H](OC(=O)[C@H]6C[C@@H](C(=O)O)C6(C)C)C(C)(C)[C@@H]5CC[C@@]4(C)[C@]3(C)CC[C@@]2(CC(=O)NCC2(N)CNC2)CC1=O	EC50	MT-2		92HT599	p24 / ELISA		<1 µM
Cc1cc2[nH]cnc2cc1NC(=O)COc1ccc(Cl)cc1C(=O)c1cc(F)cc(C(F)(F)F)c1	EC50	HeLa + HELA CD4+	RT-G190A	HXB2	β-galactosidase		<0.01 µM
Cc1cn([C@H]2C=C[C@@H](CO)O2)c(=O)[nH]c1=O	EC50	MT-4	RT-M184V	XM-M184V	p24		<0.3 µM
CCC(C)[C@@H](C(=O)N[C@@H](Cc1ccccc1)[C@H](O)CN(CC1CCCC1)S(=O)(=O)c1ccc(/C=N/O)cc1)N1CCN(Cc2cccnc2C)C1=O	EC50	MT-4	PR-L10F V32I M46I I47V Q68E I84V	A17 (LPV-resistant)	cytopathic effect / MTT		0.002 µM
Cc1cc(S(N)(=O)=O)ccc1NC(=O)COc1ccc(Cl)cc1C(=O)c1cc(F)cc(C(F)(F)F)c1	EC50	HELA MAGI	RT-P225H	IIIB	luciferase		0.0007 µM

A second listing of 5 rows from above:

smiles,read-out,cells,mutations,strain or isolate,method,conditions,result
COCc1nc(Nc2ccc(C#N)cc2)nc(Nc2c(C)cc(/C=C/C#N)cc2C)c1C(=O)NCC(OC)OC,EC50,MT4 CMV-EGFP,,K103N + Y181C,,,0.0166 µM
CCCc1cc(=O)oc2c3c(c4c(c12)OC(C)(C)CC4)O[C@H](C)[C@@H](C)[C@@H]3O,EC50,CEM + CEM-SS,,IIIB,cytopathic effect / XTT,,0.17 µM
CC1(C)NCCn2c1nc(C(=O)NCc1ccc(F)cc1)c(O)c2=O,EC50,MT-4,,,p24,,<50 µM
COCc1nc(Nc2ccc(C#N)cc2)nc(Nc2c(C)cc(/C=C/C#N)cc2C)c1C(=O)N(C)OC,EC50,MT4 CMV-EGFP,,K103N + Y181C,,,0.0724 µM
CCC(C)[C@@H](C(=O)N[C@@H](Cc1ccccc1)[C@H](O)CN(CC(C)C)S(=O)(=O)c1ccc(/C=N/O)cc1)N1CCN(Cc2c(C)ccnc2C)C1=O,EC50,MT-4,,,cytopathic effect / MTT,50% human serum,0.013 µM